Results as given in article PMC8059821 (2021).

Target: SARS1-RBD-Fc (SARS-CoV-1)

B1: monomeric tagged soluble pangolin ACE2 (pangolin ACE2-CT) (domain or fragment)
chain: QSTSDEEAKTFLEKFNSEAEELSYQSSLASWNYNTNITDENVQKMNVAGAKWSTFYEEQSKIAKNYQLQNIQNDTIKRQLQALQLSGSSALSADKNQRLNTILNTMSTIYSTGKVCNPGNPQECSLLEPGLDNIMESSKDYNERLWAWEGWRSEVGKQLRPLYEEYVVLKNEMARANHYEDYGDYWRGDYEAEGANGYNYSRDHLIEDVEHIFTQIKPLYEHLHAYVRAKLMDNYPSHISPTGCLPAHLLGDMWGRFWTNLYPLTVPFRQKPNIDVTDAMVNQTWDANRIFKEAEKFFVSVGLPKMTQTFWENSMLTEPGDGRKVVCHPTAWDLGKHDFRIKMCTKVTMDDFLTAHHEMGHIQYDMAYAMQPYLLRNGANEGFHEAVGEIMSLSAATPKHLKNIGLLPPDFYEDNETEINFLLKQALTIVGTLPFTYMLEKWRWMVFSGQIPKEQWMKKWWEMKREIVGVVEPVPHDETYCDPASLFHVANDYSFIRYYTRTIYQFQFQEALCQTAKHEGPLHKCDISNSAEAGQKLLQMLSLGKSKPWTLALERVVGTKNMDVRPLLNYFEPLLTWLKEQNKNSFVGWNTDWSPY
Kd: 1.57 µM
